Values of other authors as cited in publication PMC4483627 (Marine Drugs, 2015).
The match of structure and compound is tentative.

Assays:
nAChR = conditions: recovery rate, compared with Mr1.7 on α3β2; cited from earlier work
rat nAChR α4β2 = rat nAChR α4β2 (Rattus norvegicus, UniProt P09483+P12390); conditions: read-out: IC50 α4β2; cited from earlier work

Row | Structure (SMILES) | koff (nAChR) [min⁻¹] | IC50 (rat nAChR α4β2) [nM]
1 | CC(C)C[C@@H]1NC(=O)[C@H](CC(N)=O)NC(=O)[C@H](CO)NC(=O)[C@H](Cc2c[nH]cn2)NC(=O)[C@H](CCC(=O)O)NC(=O)[C@H](CC(C)C)NC(=O)[C@H](Cc2c[nH]cn2)NC(=O)[C@@H]2CSSC[C@H](NC(=O)CN)C(=O)N[C@@H](CSSC[C@@H](C(N)=O)NC1=O)C(=O)N[C@@H](CO)C(=O)N[C@@H](CC(N)=O)C(=O)N1CCC[C@H]1C(=O)N[C@@H](C(C)C)C(=O)N2 | 0.11 | 
2 | CC[C@H](C)[C@H](N)C(=O)N[C@@H](CCCNC(=N)N)C(=O)N[C@@H](CC(=O)O)C(=O)N[C@@H](CC(C(=O)O)C(=O)O)C(=O)N[C@H]1CSSC[C@@H]2NC(=O)[C@H](C)NC(=O)[C@@H]3CCCN3C(=O)[C@H](CC(N)=O)NC(=O)[C@H](CO)NC(=O)[C@H](CSSC[C@@H](C(=O)O)NC(=O)[C@H](C(C)C)NC(=O)[C@H](Cc3c[nH]cn3)NC(=O)[C@@H]3C[C@@H](O)CN3C(=O)[C@H](CC(N)=O)NC(=O)[C@H](CC(N)=O)NC(=O)[C@H](C(C)C)NC(=O)[C@H](CCCNC(=N)N)NC2=O)NC1=O |  | 152
3 | CC(C)C[C@@H]1NC(=O)[C@H](C(C)C)NC(=O)[C@H](C)NC(=O)[C@@H]2CSSC[C@H](NC(=O)CN)C(=O)N[C@@H](CSSC[C@@H](C(N)=O)NC(=O)[C@H](Cc3ccc(O)cc3)NC1=O)C(=O)N[C@@H](CO)C(=O)N[C@@H]([C@@H](C)O)C(=O)N1CCC[C@H]1C(=O)N1CCC[C@H]1C(=O)N2 | 0.656 | 
